Results of unrelated studies side by side (data: NIAID ChemDB).

All rows: whole-cell or culture tests; agent: Mycobacterium tuberculosis

A number after MIC or MFC names an inhibition level or a share of isolates. ECn: concentration that inhibits the pathogen or its effect by n%. Inhibition is in % at the dose shown (toxicity tests: loss of growth or viability). Neighbouring rows are from separate reports. MIC bound: limit read from a one-dose screen. Blank or dashed fields: not listed here.

smiles	method	dose	endpoint	strain	changes	cell line	value
O=C(O)c1cn(-c2ccc(F)cc2F)c2cc(N3CCC(n4c(=O)[nH]c5cc(Cl)ccc54)CC3)c([N+](=O)[O-])cc2c1=O	-	-	MIC	ATCC35801	-	-	5.5 µM
CC1=NN(c2ccccc2)C(=O)C1N=Nc1ccc(S(=O)(=O)Nc2nnc(C)s2)cc1	BACTEC	-	MIC	H37Rv	-	-	3.13 µg/mL
CC1=CC(=O)c2cc(C)ccc2C1=O	resazurin	-	MIC90	H37Rv	-	-	>6.25 µg/mL
Nc1ccc(-c2nnc(NC3CCCCC3)s2)cc1	BACTEC	6.25 µg/mL	inhibition	H37Rv	-	-	41%
CCC1=CC(=O)c2cc(CC)ccc2C1=O	resazurin	-	MIC90	H37Rv	-	-	>6.25 µg/mL
C=Cc1c(C)c(O)cc2c1-c1ccc(O)c(C)c1CC2	BACTEC	-	MIC bound	H37Rv	-	-	>12.5 µg/mL
CC(=O)c1sc(C2=CC(=O)c3ccccc3C2=O)cc1C	resazurin	-	MIC90	H37Rv	-	-	>6.25 µg/mL
COc1ccc(CSC(=S)Nc2ccc(Cl)c([N+](=O)[O-])c2)cc1	BACTEC	-	MIC	H37Rv	-	-	64 µg/mL
O=c1oc2c([N+](=O)[O-])cccc2cc1-c1cn2ccc(Br)cc2n1	BACTEC	-	MIC	H37Rv	-	-	>6.25 µg/mL
O=C(NCc1ccc(N2CCN(S(=O)(=O)C(F)(F)F)C=N2)c(F)c1)c1c(C(F)F)nc2cc(F)c(Cl)cn12	GFP	-	EC50	-	-	-	0.0042 µM
COc1ccc(CC(N=Cc2ccc3c(c2)OCO3)C(=O)NC2C(CO)OC(n3cnc4c(N(C)C)ncnc43)C2O)cc1	BACTEC	-	MIC	H37Rv	-	VERO	6.25 µg/mL
CC(C)(C)c1ccc(CN2CCC3(CC2)C(=O)N(CC2CC2)c2ccccc23)cc1	turbidity	-	MIC	TB333	Spiroindene-resistant	-	0.4 µM
CCCN1CCN(c2cc(=O)c3nc4c(oc3c2)c2c(=O)c3c(O)c(C)c5c(c34)=C(O)[C@@](C)(O/C=C/[C@H](OC)[C@@H](C)[C@@H](OC(C)=O)[C@H](C)[C@H](O)[C@H](C)[C@@H](O)[C@@H](C)/C=C/C=C(/C)C(=O)N2)O5)CC1	-	-	MIC90	16 strains (rifampicin-susceptible)	-	-	1.56 µg/mL
O=c1oc2ccccc2cc1-c1cn2ccc(Br)cc2n1	BACTEC	6.25 µg/mL	inhibition	H37Rv	-	-	6%
O=C1c2ccccc2N2OC3C4CCC(C4)C3C12c1ccccc1	resazurin	-	MIC bound	H37Rv	-	-	>6.25 µg/mL
CC(C)(C)n1cc(C(=O)O)c(=O)c2cc([N+](=O)[O-])c(N3CCC(O)(c4ccc(Cl)cc4)CC3)cc21	-	-	MIC	ATCC35801	-	-	3.29 µM
CC1CCCN(c2ccc([N+](=O)[O-])s2)C1	resazurin	-	MIC	H37Rv	-	-	6.25 µg/mL
O=C1CCCC/C1=C\c1ccc(OC(=O)c2ccccc2)cc1	-	-	EC50	H37Rv	-	-	<12.5 µg/mL
NC(=S)c1cccc(CSc2ncn[nH]2)c1	-	-	MIC	My 331/88	-	-	1000 µM
Cc1c2cnccc2c(C)c2c1c1ccccc1n2CCOC(=O)c1ccccc1	resazurin	-	MIC	H37Rv	-	VERO	3.13 µg/mL
CC(=O)/C(N=Nc1ccc(-c2nnc(Nc3ccc(Cl)cc3)s2)cc1)=C(\C)O	BACTEC	6.25 µg/mL	inhibition	H37Rv	-	-	15%
COC1=C(c2ccc(C(C)(C)C)cc2)C(=O)NC1=O	BACTEC	-	MIC bound	H37Rv	-	-	>12.5 µg/mL
Cc1noc(C2=CC3(CCN(CC4CCCO4)CC3)c3ccccc32)n1	resazurin	-	MIC	H37Rv	-	-	>200 µM
CCc1nc2ccc(Cl)cn2c1C(=O)NCc1ccc(N2CCN(c3nccs3)C=N2)cc1	GFP	-	EC50	-	-	-	0.013 µM
N#Cc1c(NC(=O)c2c(F)c(F)c(F)c(F)c2F)sc2c1CCOC2	turbidity	-	EC50	ATCC 35822	-	-	4.3 µM
Cc1ccc(-c2noc(C3=CC4(CCN(CC5CCCO5)CC4)c4ccccc43)n2)cn1	resazurin	-	MIC	12119	Ofloxacin-resistant	-	1.56 µM
O=c1oc2ccccc2cc1-c1cn2ccccc2n1	BACTEC	6.25 µg/mL	inhibition	H37Rv	-	-	0%
C1=C(c2nc(-c3ccccc3)no2)c2ccccc2OC12CCN(CC1CCCO1)CC2	resazurin	-	EC80	ss18b	-	-	50 µM
CN1c2ccc(Cl)cc2C2(C(=O)NN)C(C(=O)NN)N(C3CCCCC3)C(=O)C12N	BACTEC	-	MIC bound	H37Rv	-	-	>12.8 µg/mL
CCC1CN(c2c(F)cc3c(=O)c(C(=O)O)cn(C4CC4)c3c2OC)CCN1	-	-	MIC	50 (RFP-resistant)	-	-	0.25 µg/mL
CN[C@@H]1[C@H](O[C@H]2[C@H](O[C@H]3[C@H](O)[C@@H](O)[C@H](N=C(N)N)[C@@H](O)[C@@H]3N=C(N)N)O[C@@H](C)[C@]2(O)C=O)O[C@@H](CO)[C@H](O)[C@H]1O	turbidity	-	MIC	TB333	Spiroindene-resistant	-	1 µM
CC1CC(C)CN(c2sc([N+](=O)[O-])cc2[N+](=O)[O-])C1	resazurin	-	MIC	ss18b	-	-	6.25 µg/mL
Cc1c(N2CC3CCCNC3C2)c(F)cc2c(=O)c(C(=O)O)cn(C3CC3)c12	-	-	MIC	41 (RFP-susceptible)	-	-	<0.003 µg/mL
CC(=O)/C(N=Nc1ccc(-c2nnc(Nc3ccc(C)cc3)s2)cc1)=C(\C)O	BACTEC	6.25 µg/mL	inhibition	H37Rv	-	-	0%
CCN1CCc2c(sc(N)c2C(=O)O)C1	resazurin	-	MIC	H37Rv	-	-	>100 µg/mL
O=C(O)c1cn(-c2ccc(F)cc2F)c2cc(N3CCC(O)(c4ccc(Cl)cc4)CC3)c([N+](=O)[O-])cc2c1=O	-	-	MIC	ATCC35801	-	-	5.92 µM
S=C(Nc1ccccc1)Nc1ccc(-c2nnc(Nc3ccc(Cl)cc3)s2)cc1	BACTEC	6.25 µg/mL	inhibition	H37Rv	-	-	32%
CCOC(=O)Nc1ccc2nc(-c3cscn3)[nH]c2c1	resazurin	6.25 µg/mL	inhibition	H37Rv	-	-	50%
Clc1ccccc1CSc1ncn[nH]1	-	-	MIC	My 331/88	-	-	1000 µM
CCNC(=O)c1c(NC(=O)c2c(F)c(F)c(F)c(F)c2F)sc2c1CCN(CC)C2	turbidity	-	EC50	H37Rv	katG Y155 truncation mutant	-	5.7 µM
COC1=CC2C(=NC(C)=C2C(=O)NCc2ccc(N3CCN(S(=O)(=O)C(F)(F)F)C(OC)=N3)cc2)N=C1	GFP	-	EC50	-	-	-	0.01 µM
OC(c1cc(-c2ccc(Cl)cc2)nc2ccccc12)C1CCCCN1	-	-	MIC	H37Rv	-	VERO	0.78 µg/mL
Cc1ccc(/C=C/C(=O)Oc2ccc(/C=C3\CCCCC3=O)cc2)cc1	-	12.5 µg/mL	inhibition	H37Rv	-	-	3%
CC(=O)c1ccc(C2=CC(=O)c3ccccc3C2=O)[nH]1	resazurin	-	MIC90	H37Rv	-	-	>6.25 µg/mL
CCOC(=O)c1c(NC(=O)c2c(F)c(F)c(F)c(F)c2F)sc2c1CCOC2	turbidity	-	EC90	ATCC 35822	-	-	0.28 µM
CN(C)CCCN1c2ccccc2Sc2ccc(Cl)cc21	-	-	MBC	ATCC 27294	-	-	20 µg/mL
Cc1ccc(/C=C/C(=O)Oc2ccc(/C=C3\CCCC(CN(C)C)C3=O)cc2)cc1	-	12.5 µg/mL	inhibition	H37Rv	-	-	99%
O=C(O)C/C(C=CC(=O)C(=O)O)=C/O	BACTEC	12.5 µg/mL	inhibition	H37Rv	-	-	6%
CC[C@@H](C)N1CCN(c2cc(=O)c3nc4c(oc3c2)c2c(=O)c3c(O)c(C)c5c(c34)=C(O)[C@@](C)(O/C=C/[C@H](OC)[C@@H](C)[C@@H](OC(C)=O)[C@H](C)[C@H](O)[C@H](C)[C@@H](O)[C@@H](C)/C=C/C=C(/C)C(=O)N2)O5)CC1	-	-	MIC90	6 strains (rifampicin-resistant)	-	-	0.025 µg/mL
O=P1(NNc2ncccn2)SC(NN=C2CCCCC2)=NC12CCCCC2	BACTEC	-	MIC bound	H37Rv	-	-	>12.5 µg/mL
Cc1ccc(CSc2ncn[nH]2)cc1	-	-	MIC	My 331/88	-	-	250 µM
O=C(O)c1cn(C2CC2F)c2c(Cl)c(N3CC4CCCNC4C3)c(F)cc2c1=O	-	-	MIC	71 (RFP-resistant)	-	-	0.1 µg/mL
CCN1CCc2c(sc(NC(=O)c3c(F)c(F)c(F)c(F)c3F)c2C#N)C1	turbidity	-	MIC	H37Rv	katG Y155 truncation mutant	-	20 µM
CC(=O)N1c2ccccc2CC1C1=CC(=O)c2ccccc2C1=O	resazurin	-	MIC90	H37Rv	-	-	>6.25 µg/mL
S=C(Nc1ccccc1)Nc1ccc(-c2nnc(Nc3ccccc3)s2)cc1	BACTEC	6.25 µg/mL	inhibition	H37Rv	-	-	1%
CC1COc2c(N3CCN(C)CC3)c(F)cc3c(=O)c(C(=O)O)cn1c23	broth dilution	-	MIC	EMB-resistant 17003	-	-	0.5 µg/mL
CCN1CCc2c(sc(NC(=O)c3c(F)c(F)c(F)c(F)c3F)c2C(=O)NC)C1	low oxygen	-	EC50	-	-	-	1.9 µM
COc1cccc(CSc2ncn[nH]2)c1	-	-	MIC	My 331/88	-	-	1000 µM
O=C1CCCC/C1=C\c1ccc(OC(=O)c2ccc(Cl)cc2)cc1	-	-	EC50	H37Rv	-	-	<12.5 µg/mL
NC(=S)N=Nc1c(O)n(CCCO)c2ccccc12	BACTEC	12.5 µg/mL	inhibition	H37Rv	-	-	40%
Cc1ccn2cc(-c3cc4cccc([N+](=O)[O-])c4oc3=O)nc2c1	BACTEC	-	MIC	H37Rv	-	-	>6.25 µg/mL
COc1ccc(OC)c2c1C(=O)C=CC2=O	resazurin	-	MIC90	H37Rv	-	-	>6.25 µg/mL
COC1=NN(c2ccc(CNC(=O)c3c(C(F)F)nc4ncccn34)cc2F)CCN1S(=O)(=O)C(F)(F)F	GFP	-	EC50	-	-	-	0.0035 µM
FC(F)(F)c1cccc(CSc2ncn[nH]2)c1	-	-	MIC	My 331/88	-	-	250 µM
CN[C@@H]1[C@H](O[C@H]2[C@H](O[C@H]3[C@H](O)[C@@H](O)[C@H](N=C(N)N)[C@@H](O)[C@@H]3N=C(N)N)O[C@@H](C)[C@]2(O)C=O)O[C@@H](CO)[C@H](O)[C@H]1O	broth dilution	-	MIC	H37Rv Harlingen	-	-	≤0.5 µg/mL
O=C1C(Cl)=C(N=Nc2c(Cl)c(O)c3ccccc3c2O)C(=O)c2ccccc21	BACTEC	12.5 µg/mL	inhibition	H37Rv	-	-	97%
CO[C@H]1/C=C/O[C@@]2(C)Oc3c(C)c(O)c4c(O)c(c(/C=N/N5CCN(C)CC5)c(O)c4c3C2=O)NC(=O)/C(C)=C\C=C\[C@H](C)[C@H](O)[C@@H](C)[C@@H](O)[C@@H](C)[C@H](OC(C)=O)[C@@H]1C	resazurin	-	MIC	H37Rv	-	-	0.001 µg/mL
CCO/C=C1\N=C(c2cc(OC)cc(OC)c2)OC1=O	BACTEC	-	MIC bound	H37Rv	-	-	>12.5 µg/mL
CC(C)(C)n1cc(C(=O)O)c(=O)c2cc(F)c(N3CCC(N4CCCCC4)CC3)cc21	-	-	MIC	ATCC35801	-	-	1.82 µM
Nc1cc(O)c(C(=O)O)cc1F	resazurin	-	MIC90	H37Rv	-	-	<3.13 µg/mL
CCc1nc2ccc(C#N)cn2c1C(=O)NCc1ccc(N2CCN(S(=O)(=O)C(F)(F)F)C(OC)=N2)cc1	GFP	-	EC50	-	-	-	0.16 µM
CCOC(=O)c1c(NC(C)=O)sc2c1CCCC2	resazurin	-	MIC	H37Rv	-	-	>100 µg/mL
CCOC(N)=O.Cc1cc(NS(=O)(=O)c2ccc(N=Nc3cc(N=Nc4ccc(S(=O)(=O)Nc5cc(C)nc(C)n5)cc4)c4c(NC(=O)C(Cl)Cl)cccc4c3OC(=O)C(Cl)Cl)cc2)nc(C)n1	BACTEC	-	MIC bound	H37Rv	-	-	>12.5 µg/mL
Cc1ccc(C(=O)Oc2ccc(/C=C3\CCC/C(=C\c4ccc(OC(=O)c5ccc(C)cc5)cc4)C3=O)cc2)cc1	-	-	EC50	H37Rv	-	-	>12.5 µg/mL
Cc1cc(OC(=O)c2c(-c3ccccc3)noc2C)n(-c2ccc(NC(=O)c3c(-c4ccccc4)noc3C)cc2)n1	resazurin	6.25 µg/mL	inhibition	H37Rv	-	-	27%
Nc1sc(-c2ccccc2)cc1C(=O)NC12CC3CC(CC(C3)C1)C2	resazurin	-	MIC	H37Rv	-	-	>100 µg/mL
COc1cc(C(=O)NCC(=O)NN=C(C)C)cc(OC)c1OC	BACTEC	-	MIC	H37Rv	-	-	≥12.5 µg/mL
COc1ccc(-c2noc(C3=CC4(CCN(CC5CCCO5)CC4)c4ccccc43)n2)cc1	resazurin	-	MIC	Beijing (E-47/94)	Drug-resistant	-	0.39 µM
CC1=NN(C(=O)c2ccncc2)C(=O)C1N=Nc1c(C)n(C)n(-c2ccccc2)c1=O	BACTEC	-	MIC	H37Rv	-	-	≥12.8 µg/mL
CCOC(=O)c1c(NC(=O)c2c(F)c(F)c(F)c(F)c2F)sc2c1CCNC2=O	turbidity	-	EC90	ATCC35838	-	-	1.9 µM
CC(=O)NNc1nc(C)c(C(/C=C/c2ccc(Cl)cc2)=N/NS(=O)(=O)c2ccc(C)cc2)s1	resazurin	-	MIC bound	H37Rv	-	-	>6.25 µg/mL
NNC(=O)c1ccncc1	-	-	MIC	linezolid resistant 8.1	T460C Cys154Arg	-	0.06 µg/mL

Repeating the final 5 entries:

smiles | method | dose | endpoint | strain | changes | cell line | value
COc1ccc(-c2noc(C3=CC4(CCN(CC5CCCO5)CC4)c4ccccc43)n2)cc1 | resazurin | - | MIC | Beijing (E-47/94) | Drug-resistant | - | 0.39 µM
CC1=NN(C(=O)c2ccncc2)C(=O)C1N=Nc1c(C)n(C)n(-c2ccccc2)c1=O | BACTEC | - | MIC | H37Rv | - | - | ≥12.8 µg/mL
CCOC(=O)c1c(NC(=O)c2c(F)c(F)c(F)c(F)c2F)sc2c1CCNC2=O | turbidity | - | EC90 | ATCC35838 | - | - | 1.9 µM
CC(=O)NNc1nc(C)c(C(/C=C/c2ccc(Cl)cc2)=N/NS(=O)(=O)c2ccc(C)cc2)s1 | resazurin | - | MIC bound | H37Rv | - | - | >6.25 µg/mL
NNC(=O)c1ccncc1 | - | - | MIC | linezolid resistant 8.1 | T460C Cys154Arg | - | 0.06 µg/mL